Results of unrelated studies side by side (data: NIAID ChemDB).

All rows: tests in culture; agent: Pneumocystis carinii

An empty or dashed field is not shown.

structure,cell line,method,conditions,read-out,tested at,result
C(=N\Nc1ccccc1)/c1ccc(N2CCN(c3ccc(/C=N/Nc4ccccc4)cc3)CC2)cc1,-,ATP,-,EC50,-,>100 µg/mL
CCC(C)CN=C(N)c1ccc(N2CCN(c3ccc(C(N)=NCC(C)CC)cc3)CC2)cc1.Cl.Cl,A549,ATP,-,EC50,-,0.001 µg/mL
CCCCCCN=C(N)c1ccc(N2CCN(c3ccccc3)CC2)cc1,-,-,-,inhibition,0.1 µg/mL,56%
CC(=O)Nc1ccc(C(=O)O)cc1,-,-,-,inhibition,1000 µM,99%
CCc1c(O)c(=O)ccn1CCOC,Human fibroblasts,-,7 d,inhibition,18 µM,30%
CCCCCN=C(N)c1ccc(N2CCN(c3ccccc3)CC2)cc1,-,-,-,inhibition,0.1 µg/mL,13%
N=C(N)c1ccc(OCCCCCOc2ccc(C(=N)N)cc2)cc1,A549,ATP,-,EC50,-,0.3 µg/mL
CC(C)CCN=C(N)c1ccc(N2CCN(c3ccc(C(N)=NCCC(C)C)cc3)CC2)cc1,-,ATP,-,EC50,-,0.009 µg/mL
Cl.Cl.N=C(N)c1ccc(NC(=O)CCCC(=O)Nc2ccc(C(=N)N)cc2)cc1,A549,ATP,-,EC50,-,0.001 µg/mL
O=C1C(=O)c2ccccc2C(O)=C1C1CCC(c2ccc(Cl)cc2)CC1,-,-,-,MIC,-,1 µg/mL
O=[N+]([O-])c1ccc(N2CCN(c3ccc([N+](=O)[O-])cc3)CC2)cc1,-,ATP,-,EC50,-,34.1 µg/mL
[Ca+2],Human fibroblasts,-,7 d,inhibition,30 µM,31%
CN=C(N)c1ccc(N2CCN(c3ccc(C(N)=NC)cc3)CC2)cc1,-,ATP,-,EC50,-,1.53 µg/mL
NC(=NCCCc1ccccc1)c1ccc(N2CCN(c3ccccc3)CC2)cc1,-,-,-,inhibition,0.1 µg/mL,0%
CCC(C)CN=C(N)c1ccc(N2CCN(c3ccc(C(N)=NCC(C)CC)cc3)CC2)cc1,-,ATP,-,EC50,-,0.001 µg/mL
CCc1c(O)c(=O)ccn1CC,Human fibroblasts,-,7 d,EC50,-,>18 µM

Repeating the final 2 entries:

structure | cell line | method | conditions | read-out | tested at | result
CCC(C)CN=C(N)c1ccc(N2CCN(c3ccc(C(N)=NCC(C)CC)cc3)CC2)cc1 | - | ATP | - | EC50 | - | 0.001 µg/mL
CCc1c(O)c(=O)ccn1CC | Human fibroblasts | - | 7 d | EC50 | - | >18 µM

Neighbouring rows are from separate reports. Percent inhibition refers to the dose given; in toxicity tests it is the harm to the cells. ECn: concentration that inhibits the pathogen or its effect by n%.